Data: ChEMBL document CHEMBL1142398, “Chemical stability of the peroxide bond enables diversified synthesis of potent tetraoxane antimalarials” (J Med Chem, 2008)

What was measured:
Format in all cases: functional
[1] = system: Plasmodium berghei; experiment: Antimalarial activity against Plasmodium berghei KBG173 infected CD1 mice (Mus musculus) at 300 mg/kg/day subcutaneous dose as survival time after 3-5 days
[2] = system: Plasmodium berghei; experiment: Antimalarial activity against Plasmodium berghei KBG173 infected CD1 mice (Mus musculus) at 150 mg/kg/day subcutaneous dose as survival time after 3-5 days
[3] = system: Plasmodium berghei; experiment: Antimalarial activity against Plasmodium berghei KBG173 infected CD1 mice (Mus musculus) at 37.5 mg/kg/day subcutaneous dose as survival time after 3-5 days
[4] = system: Plasmodium berghei; experiment: Antimalarial activity against Plasmodium berghei KBG173 infected CD1 mice (Mus musculus) at 9.3 mg/kg/day subcutaneous dose as survival time after 3-5 days

`[N-]=[N+]=NCC1CCC2(CC1)OOC1(CCCCC1)OO2` was tested, and the Survival [1] was 30.6 days, the Survival [2] was 26.4 days and the Survival [3] was 19.2 days. It also gave a Survival [4] of 10 days.
